The list shows a part of the results, in another mix than the full data.
system: Pseudomonas aeruginosa PA14 dppA1-A5 penta mutant + pBBR5.DppA1 (PA14_58350); test: respiration area under curve with compound as sole nitrogen source, 24 h (OmniLog AUC (arbitrary units)); higher = more respiration / better utilisation as nitrogen source, active = 2000 or more; conditions: plate: PM8
Experimental: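 Biolog Phenotype MicroArray plates PM6-PM8: each di/tripeptide is the sole nitrogen source. Tetrazolium reduction was read in the OmniLog for 24 h at 37°C and summarised as area under the respiration curve (arbitrary units). Values below 2000 count as no respiration. Strain is the SBP penta mutant complemented with DppA1 on a plasmid under its native promoter. Lys/His/Cys peptides are excluded.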

Structure (SMILES)	respiration area under curve
CC(C)C[C@H](N)C(=O)N[C@@H](Cc1ccc(O)cc1)C(=O)O	active: 7460
